# According to publication PMC5364394:
# Chains of the proteins cited; added tags and fusions are not shown. Residues count along the entry.
# UniProt Q07955, 1-197, stated change not applied: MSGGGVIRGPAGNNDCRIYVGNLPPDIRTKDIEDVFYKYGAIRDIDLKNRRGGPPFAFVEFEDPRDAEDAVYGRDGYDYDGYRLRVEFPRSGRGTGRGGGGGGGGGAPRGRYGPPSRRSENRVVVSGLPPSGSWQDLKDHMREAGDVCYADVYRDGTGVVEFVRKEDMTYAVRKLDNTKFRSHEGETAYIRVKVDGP
# UniProt Q07955, whole entry: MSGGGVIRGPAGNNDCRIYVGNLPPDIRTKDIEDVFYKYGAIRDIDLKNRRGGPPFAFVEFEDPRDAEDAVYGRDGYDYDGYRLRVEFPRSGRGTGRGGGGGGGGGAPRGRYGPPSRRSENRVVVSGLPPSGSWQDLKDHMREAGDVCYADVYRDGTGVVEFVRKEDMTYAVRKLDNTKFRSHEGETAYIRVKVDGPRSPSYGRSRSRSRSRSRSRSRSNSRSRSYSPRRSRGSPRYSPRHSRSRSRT
# For at least one entry, the source does not settle the construct or the ends of the probe. Results from cells or extracts need not show a direct contact. For some assays here: At least one verdict was read from the data and is not stated in words by the source.
# Columns and labels:
# [1] = molecular target: FLAG-SF2/ASF delta-RS (human) (UniProt Q07955); assay: EMSA; conditions: protein in a lysate after overexpression, protein details: FLAG, label: IRDye-800
# [2] = molecular target: FLAG-SF2/ASF full length (nuclear extract) (human) (UniProt Q07955); assay: competition with a labelled probe; conditions: protein in a lysate after overexpression; protein details: FLAG
Sequence,binding result [1],other results
GACAUACUGAUGAGGAUGUC [WSN-NS-529-548],binds,–
CUUCUCUUCCAGGA [NS-acceptor site (AS)],–,binding result ([1]; strong binding): binds
GACAUACUUAUGAGGAUGUC [CA04-NS-529-548],binds,–
GACAUACUGCUGAGGAUGUC [PR8-NS-529-548],binds,–
GACAUACUAUUGAGGAUGUC [Aichi68-NS-529-548],binds,–
GACAUACUAAUGAGGAUGUC [QH15-NS-529-548],binds,–
GACAUACUGGUGAGGAUGUC [1194-NS-529-548],binds,–
GACAUACUGACAAGGAUGUC [H7N9-NS-529-548 cold competitor (WT)],–,binding result [2]: binds
